{"source": "patent US9096492B2", "about": "“Hydrated N-fullerene amino acids, method for producing the latter, and pharmaceutical compositions on the basis thereof” (priority 2011, dated 2015)", "system": "A/Swine/1976/31 (H1N1) influenza virus", "format": "in vivo, mice", "note": "Where two headings read alike, the source gives them in different places."}
{"substance": "N-fullerene tris(δ-aminocaproic acid) hydrate [Agent 1]", "values": [{"measurement": "Index of protection", "setting": "30 mg/kg, Summary dose, n=30", "value": 21.7}, {"measurement": "Index of protection", "setting": "30 mg/kg, virus 1 LD50, n=15", "value": 25.0}, {"measurement": "Index of protection", "setting": "30 mg/kg, virus 10 LD50, n=15", "value": 21.0}, {"measurement": "Index of protection", "setting": "100 mg/kg, Summary dose, n=28", "value": 45.7}, {"measurement": "Index of protection", "setting": "100 mg/kg, virus 1 LD50, n=15", "value": 50.0}, {"measurement": "Index of protection", "setting": "100 mg/kg, virus 10 LD50, n=13", "value": 42.0}, {"measurement": "Index of protection", "setting": "300 mg/kg, Summary dose, n=28", "value": 55.6}, {"measurement": "Index of protection", "setting": "300 mg/kg, virus 1 LD50, n=14", "value": 59.8}, {"measurement": "Index of protection", "setting": "300 mg/kg, virus 10 LD50, n=14", "value": 53.8}]}
